PubChem BioAssay AID624099 – ICCB-Longwood | 2012

Purpose: 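Human genes that papillomavirus E2 requires to repress the HPV18 LCR promoter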 (primary screen)
System: human C33A cervical carcinoma cells (HPV-negative) stably expressing BPV1 E2 and an HPV18 LCR luciferase reporter
Reagents: siRNA pool against human genes, 40 nM
Time to read-out: 72 h
Measured: 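Per-well luciferase luminescence, z-scored on each plate against the plate mean and SD with control wells left out, then averaged across three replicate plates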
Reading the numbers: mean z-score and z-score: higher = stronger reporter signal, weaker E2 silencing
Active means: 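Hit if mean z-score reaches 2 and two or more of three replicate z-scores also reach 2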
Shown is a random part of about 21,000 deposited reagents. Of all reagents, 497 (2.4%) are marked active. 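Higher z means weaker E2 silencing; only reporter increases were scored, and knock-downs that hurt cell survival may mask genuine repressor factors.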 Entries without a mark were called inactive. No sequences are given here.

{"target": "LOC400298 (retired record) (GeneID 400298)", "mean z-score": -1.71, "z-score, replicate A": -1.65, "z-score, replicate B": -1.76, "z-score, replicate C": -1.7}
{"target": "LIPM (GeneID 340654)", "mean z-score": -0.31, "z-score, replicate A": 0, "z-score, replicate B": -0.56, "z-score, replicate C": -0.36}
{"target": "IGLJ3 (GeneID 28831)", "mean z-score": 1.18, "z-score, replicate A": 1.25, "z-score, replicate B": 1.05, "z-score, replicate C": 1.22}
{"target": "GET4 (GeneID 51608)", "mean z-score": 0.26, "z-score, replicate A": 0.01, "z-score, replicate B": 0.52, "z-score, replicate C": 0.25}
{"target": "POLN (GeneID 353497)", "mean z-score": 0.59, "z-score, replicate A": 0.69, "z-score, replicate B": 0.68, "z-score, replicate C": 0.4}
{"target": "ERP29 (GeneID 10961)", "mean z-score": -0.93, "z-score, replicate A": -0.74, "z-score, replicate B": -1.23, "z-score, replicate C": -0.81}
{"target": "KCTD19 (GeneID 146212)", "mean z-score": -0.76, "z-score, replicate A": -0.89, "z-score, replicate B": -0.9, "z-score, replicate C": -0.48}
{"target": "RYK (GeneID 6259)", "mean z-score": -0.51, "z-score, replicate A": -0.57, "z-score, replicate B": -0.49, "z-score, replicate C": -0.47}
{"target": "RASSF6 (GeneID 166824)", "mean z-score": 0.93, "z-score, replicate A": 1.31, "z-score, replicate B": 0.87, "z-score, replicate C": 0.61}
{"target": "TERB2 (GeneID 145645)", "mean z-score": -0.61, "z-score, replicate A": -1.18, "z-score, replicate B": -0.64, "z-score, replicate C": -0.01}

Targets listed so far whose target name begins with R or r (2):
{"target": "RYK (GeneID 6259)", "mean z-score": -0.51, "z-score, replicate A": -0.57, "z-score, replicate B": -0.49, "z-score, replicate C": -0.47}
{"target": "RASSF6 (GeneID 166824)", "mean z-score": 0.93, "z-score, replicate A": 1.31, "z-score, replicate B": 0.87, "z-score, replicate C": 0.61}

The list goes on:
{"target": "SLC35B1 (GeneID 10237)", "mean z-score": -0.06, "z-score, replicate A": -0.01, "z-score, replicate B": -0.07, "z-score, replicate C": -0.1}
{"target": "EZH2 (GeneID 2146)", "mean z-score": 0.57, "z-score, replicate A": 0.6, "z-score, replicate B": 0.44, "z-score, replicate C": 0.65}
{"target": "TTC9 (GeneID 23508)", "mean z-score": -0.5, "z-score, replicate A": -0.38, "z-score, replicate B": -0.77, "z-score, replicate C": -0.34}
{"target": "C1orf162 (GeneID 128346)", "mean z-score": 0.04, "z-score, replicate A": 0.25, "z-score, replicate B": -0.02, "z-score, replicate C": -0.12}
{"target": "NTSR2 (GeneID 23620)", "mean z-score": -0.27, "z-score, replicate A": -0.12, "z-score, replicate B": -0.48, "z-score, replicate C": -0.22}
{"target": "CYB561D1 (GeneID 284613)", "mean z-score": -1.21, "z-score, replicate A": -1.35, "z-score, replicate B": -1.16, "z-score, replicate C": -1.11}
{"target": "G3BP2 (GeneID 9908)", "mean z-score": 0.07, "z-score, replicate A": -0.12, "z-score, replicate B": 0.17, "z-score, replicate C": 0.18}
{"target": "RPL31P43 (GeneID 392382)", "mean z-score": 0.04, "z-score, replicate A": 0.38, "z-score, replicate B": -0.11, "z-score, replicate C": -0.16}
{"target": "ZNF70 (GeneID 7621)", "mean z-score": 0.48, "z-score, replicate A": 0.69, "z-score, replicate B": 0.59, "z-score, replicate C": 0.16}
{"target": "NRP2 (GeneID 8828)", "mean z-score": "2.43 (active)", "z-score, replicate A": 1.92, "z-score, replicate B": 2.47, "z-score, replicate C": 2.91}
{"target": "USP16 (GeneID 10600)", "mean z-score": -0.3, "z-score, replicate A": -0.57, "z-score, replicate B": -0.32, "z-score, replicate C": 0}
